Molecules are shown by their SMILES. Only a part is listed here, and it is no random draw. The source made the active and inactive calls. No stated cut-off is given here; in the data, active means activation above about 50%; inactive means the rest.

Sequences of proteins named here, by UniProt entry; tags and fusion partners are left off.
UniProt P0AE70, whole entry, looked up: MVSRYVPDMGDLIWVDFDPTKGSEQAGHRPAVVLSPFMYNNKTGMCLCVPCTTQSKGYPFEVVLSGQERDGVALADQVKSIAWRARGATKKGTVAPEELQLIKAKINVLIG

The assay concerns the target Endoribonuclease toxin MazF (Escherichia coli (strain K12)) (UniProt P0AE70). Nature of the assay: activators of E. coli MazEF toxin-antitoxin RNase, primary screen, biochemical, fluorescence, uHTS (AID 504720). The settings on record: FAM/BHQ RNA-DNA oligo cleavage fluorescence, 5 h, at 20 µM, active compounds read high.
With `COc1ccccc1OP(C)(=O)Nc1ccc(Br)cc1` (stereo not drawn), the activation is inactive: 3.28%.
As to `COc1ccc(OP(C)(=O)Nc2ccccn2)cc1` (stereo not drawn), the activation is inactive: -9.34%.
For `CN(C)CCOC(=O)C(O)(c1ccccc1)C1CCCC1` (stereo not drawn), the activation was inactive: 3.87%.
`Cc1c(NP(C)(=O)Oc2ccc(C(C)C)cc2)c(=O)n(-c2ccccc2)n1C` (stereo not drawn): the activation is inactive: 5.23%.
Regarding `O=[N+]([O-])c1cc([N+](=O)[O-])c(Nc2ccccn2)c([N+](=O)[O-])c1`, the activation is inactive: 5.33%.
Regarding `CP(=O)(Nc1ccccn1)Oc1ccccc1` (stereo not drawn), the activation was inactive: -4.76%.
The value for `COc1ccccc1OP(C)(=O)Nc1ccc(C)cc1C` (stereo not drawn) was inactive: 3.76%.
`CCc1ccc(OP(C)(=O)O)cc1`: the activation was inactive: -5.13%.
As for `O=C1C(O)=C([N+](=O)[O-])C(=O)C(O)=C1[N+](=O)[O-]`, the activation was inactive: 1.23%.
With `Cc1cc(C)cc(OP(C)(=O)Nc2cccc(C(F)(F)F)c2)c1` (stereo not drawn), the activation was inactive: -7.2%.
The figure for `COc1ccccc1OP(C)(=O)Nc1ccc(C)c(C)c1` (stereo not drawn) is inactive: 3.67%.
Consider `COc1ccc(OP(C)(=O)Nc2ccccc2Br)cc1` (stereo not drawn), for which the activation was inactive: 9.22%.
Regarding `CCCCCCCCCCCCCCCC1C[N+](C)(C)CCOP(C)(=O)O1` (stereo not drawn), the activation is inactive: -28.8%.
Consider `CP(=O)(Nc1ccc(Cl)cc1Cl)Oc1ccccc1` (stereo not drawn), for which the activation is inactive: 1.95%.
The value for `CP(=O)(OCCOc1ccccc1)OCCOc1ccccc1` was inactive: -2.55%; that for `Nc1ccc2c(ccc3cccnc32)n1.O=[N+]([O-])c1cc([N+](=O)[O-])c(O)c([N+](=O)[O-])c1` was inactive: 0.025%; that for `CCOC(=O)c1ccc(NP(C)(=O)Oc2ccc(Cl)cc2)cc1` (stereo not drawn) was inactive: -2.88%.
With `CP(=O)(OC12CC3CC(CC(C3)C1)C2)OC12CC3CC(CC(C3)C1)C2`, the activation was inactive: -2.4%.
Turning to `CCN(CC)CC(O)COC(=O)C(O)(c1ccccc1)C1CCCCC1` (stereo not drawn), the activation was inactive: -0.849%.
On to `COc1ccc(OP(C)(=O)Nc2ccc(Br)cc2)cc1` (stereo not drawn), for which the activation was inactive: -0.483%.
As for `COc1ccccc1OP(C)(=O)Nc1c(C)n(C)n(-c2ccccc2)c1=O` (stereo not drawn), the activation was inactive: 0.59%.
The figure for `O=C(OCCCN1CCCC1)C(O)(c1ccccc1)C1CCCCC1` (stereo not drawn) is inactive: -1.08%; for `CP(=O)(Oc1ccccc1)N1CCOC1=O` (stereo not drawn) it is inactive: 5.23%.
With `CCc1ccc(OP(C)(=O)Nc2cccnc2)cc1` (stereo not drawn), the activation is inactive: 0.751%.
The value for `COc1ccccc1OP(C)(=O)Nc1ccccc1Br` (stereo not drawn) was inactive: -0.837%.
Take `CC(C)(C)c1ccc(OP(C)(=O)O)cc1`: the activation was inactive: -5.08%.
Regarding `CP(=O)(Nc1ccc(Cl)cc1)Oc1ccc(F)cc1` (stereo not drawn), the activation was inactive: -8.51%.
For `CN(C)C(=O)c1c([N+](=O)[O-])cc([N+](=O)[O-])cc1[N+](=O)[O-]`, the activation was inactive: -13.9%.

These data come from PubChem BioAssay AID504720 (Sanford-Burnham Center for Chemical Genomics, 2011).
